The list shows a part of the results, in another mix than the full data. Calls of active or inactive are those of the source. Cut-off read from the data, not from the text of the source: active = inhibition above about 26%; inactive = the rest.

In the assay the test system is Candida albicans multidrug efflux pump MDR1 (expressed in S. cerevisiae AD1-8u). The experiment in a line: inhibitors of Candida albicans Mdr1 efflux, confirmation, flow cytometry, singleplex, Cherry Pick1 set (AID 588518).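 Note: 0% = DMSO vehicle and 100% = reference inhibitor; higher means more Nile Red retained so more efflux inhibition.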 Particulars: S. cerevisiae AD/CaMDR1, Nile Red efflux, at 10 µM, stronger effect = higher value.
Turning to `O=P(Nc1nccs1)(c1ccccc1)c1nc2ccccc2s1` (stereo unspecified), the inhibition was inactive: -0.23%.
